Earlier results in paper PMC5572697, “A first-in-human study of the novel HIV-fusion inhibitor C34-PEG4-Chol” (Scientific Reports, 2017).

Test system: patients
Details: enfuvirtide, pivotal Phase 3 studies; cited from earlier work

In the case of enfuvirtide, the “Frequency of mild/moderate ISRs: Erythema / Redness” value is given as 90.8, the “Frequency of mild/moderate ISRs: Induration / Swelling” value is given as 94.4 and the “Frequency of mild/moderate ISRs: Nodules/cysts” value is given as 81.6. The “Frequency of mild/moderate ISRs: Pain” value was 93.1 and the “Frequency of mild/moderate ISRs: Tenderness” value was 89.8.
